Measured values published in US20130149329A1 (BOARD OF REGENTS FOR OKLAHOMA STATE UNIVERSITY, published 2013).

Biological target: IpgC (cognate chaperone of IpaB, untagged, expressed from pACYCDuet-1) (Shigella flexneri 2457T, UniProt P0A2U4 1-155)

B1: His-tag IpaD-IpaB chimeric (fusion) protein (other)
chain: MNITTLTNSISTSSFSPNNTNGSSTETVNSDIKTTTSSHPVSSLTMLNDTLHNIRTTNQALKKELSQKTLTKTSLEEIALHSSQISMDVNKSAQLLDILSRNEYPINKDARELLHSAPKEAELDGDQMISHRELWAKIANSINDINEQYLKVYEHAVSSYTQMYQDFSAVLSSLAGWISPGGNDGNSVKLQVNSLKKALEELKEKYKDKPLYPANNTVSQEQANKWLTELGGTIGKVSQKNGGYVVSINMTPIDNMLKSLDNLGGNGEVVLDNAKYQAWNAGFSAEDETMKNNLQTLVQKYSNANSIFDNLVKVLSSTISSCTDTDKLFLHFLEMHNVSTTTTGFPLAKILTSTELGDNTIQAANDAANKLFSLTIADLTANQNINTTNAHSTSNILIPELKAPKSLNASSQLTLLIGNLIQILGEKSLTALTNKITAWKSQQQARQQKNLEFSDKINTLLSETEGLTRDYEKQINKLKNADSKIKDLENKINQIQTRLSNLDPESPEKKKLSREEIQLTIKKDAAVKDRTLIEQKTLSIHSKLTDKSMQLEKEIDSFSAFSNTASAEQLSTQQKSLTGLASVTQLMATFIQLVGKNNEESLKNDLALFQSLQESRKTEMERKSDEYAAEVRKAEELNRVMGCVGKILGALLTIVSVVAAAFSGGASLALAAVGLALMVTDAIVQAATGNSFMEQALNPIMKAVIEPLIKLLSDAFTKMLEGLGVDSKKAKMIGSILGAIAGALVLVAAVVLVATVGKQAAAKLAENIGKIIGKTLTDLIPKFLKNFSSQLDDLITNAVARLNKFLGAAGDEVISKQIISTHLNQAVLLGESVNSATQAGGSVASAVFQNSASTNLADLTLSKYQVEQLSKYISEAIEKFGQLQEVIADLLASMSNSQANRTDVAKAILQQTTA
B1: binds.
